Test results reported in patent US10351847B2, “Identification and display of peptide ligands” (OXFORD UNIVERSITY INNOVATION LIMITED, priority 2013, dated 2019).
Ends that are not written are not given here.

Tested on: HIV-1 clade C (ES-X1936-C)
Assay: HIV-1 inhibition assay (intracellular p24 in CD4+ cells of PBMC)
Assay type: cell-based
Conditions: CCR5 tropic virus

SYSFCPRRQ (also: GS linker and biotinylated lysine, end not given here) [GP3]
inhibition of replication: exhibited inhibition
